Test results: publication PMC10508830 (Antiviral research, 2023)

Biological target: NA of A/fox/Michigan/22-014536-004/2022 (del50-70) (Influenza A virus, UniProt Q9Q0U7)
Type: biochemical, influenza A(H5N1) virus
Conditions: read-out: Mean IC50 ± SD

oseltamivir carboxylate
IC50: 2.55 nM
